The text below walks through data of paper PMC5004841, “Development of a rapid phenotypic test for HCV protease inhibitors with potential use in clinical decisions” (Genetics and Molecular Biology, 2016).

Where two headings read alike, the source gives them in different places.

Assay [1] has as its system HCV NS3-4A protease T54A. The following applies: mutant T54A vs NS3 WT. An excerpt:
(§1) The HCV genotype 1b NS3-4A protease domain from the plasmid pFKI389 Luc-ubi-neo/NS3-3'/ET (kindly provided by Dr. Ralf Bartenschlager) was amplified with the antisense primer 5'-[…]-3'containing a BamHI enzyme restriction site and the sense primer 5'-[…]-3' containing a HindIII enzyme restriction site. This fragment was cloned into a pET21dhis-TEV bacterial expression vector (a pET21d plasmid, which was modified to codify a 6x histidine tag followed by a cleavage site recognized by the Tobacco Etch virus nTev protease at the protein N-terminus). The single chain NS3-4A protease contains the protease domain (182 amino acids) and a 20-aa portion of the cofactor NS4A ([Abrahim-Vieira et al., 2014]).
(§2) Protein expressions were carried out as described previously with some modifications to simplify techniques and to perform the protocol in a smaller inoculum volume ([Abrahim-Vieira et al., 2014]). Transformed BL21 (λDE3) cells were grown at 37°C in 500 mL of LB medium containing […] ampicilin until an OD600 of 0.6-0.8 was reached. Then, cultures were induced with 0.5 mM isopropyl-1-thio-β-D-galactopyranoside (IPTG) and incubated with shaking at 25 °C for 4 h. Cells expressing NS3-4A constructs were harvested by centrifugation and stored at −80 °C. All resuspension steps were performed at 4 °C. Frozen pellets were resuspended in 12.5 mL of buffer A (Tris-HCl 50 mM pH 7.5; NaCl 300 mM; 2 mM β-mercaptoethanol; 10% glycerol; 0.5% Triton X-100). After resuspension, lysates were treated with lysozyme (5 mg/mL) for 1 h with stirring, subjected to 20 cycles of 15 s of sonication and 30 s of resting. Lysates were cleared by centrifugation at 12.000 g for 30 min and the supernatant filtered with 0.22 μM filter units (Nalgene). After filtration, supernatants were applied in 2 mL of Ni-NTA Agarose (Life Technologies) previously washed with distilled water and equilibrated with buffer A. Agarose resin was washed three times with buffer A and recombinant proteins were eluted with buffer A with 125, 250 and 500 mM imidazol (buffer B). […] Fractions were pooled and dialyzed overnight against buffer A with SnakeSkin Dialysis Tubing 10K MWCO (Thermo Scientific). Purified NS3-4A constructs were quantified with Micro BCA Protein Assay Kit (Thermo Scientific).
(§3) All enzyme inhibition assays were performed in nonbinding black surface 96-well plates (Corning).

The test system of assay [2] is HCV NS3-4A protease T54S + V170I. As to conditions: mutant T54S + V170I vs NS3 WT.
Excerpt: as §1, §2, §3

Assay [3] deals with HCV NS3-4A protease V158I. The following applies: mutant V158I vs NS3 WT.
Excerpt: as §1, §2, §3

The test system of assay [4] is HCV NS3-4A protease V170I. As to conditions: mutant V170I vs NS3 WT.
Excerpt: as §1, §2, §3

In assay [5] the test system is HCV NS3-4A protease V36M. The following applies: mutant V36M vs NS3 WT.
Excerpt: as §1, §2, §3

For assay [6], the system named is HCV NS3 T54A. The following applies: ref Sarrazin et al., 2007; cited from earlier work.
Assay [7] concerns HCV NS3 V36M. The following applies: cited from earlier work.

In the case of `CCC[C@H](NC(=O)[C@@H]1[C@H]2CCC[C@H]2CN1C(=O)[C@@H](NC(=O)[C@@H](NC(=O)c1cnccn1)C1CCCCC1)C(C)(C)C)C(=O)C(=O)NC1CC1` [Telaprevir], the “fold change (mutant IC50 median/WT IC50 median)” value in assay [1] came out at 9.6 fold; in assay [2] it was 2.7 fold; in assay [3], 0.3 fold; in assay [4] it was 1.6 fold; in assay [5] it was 1.2 fold. Besides, the fold change in assay [6] is 12 fold; in assay [7] (ref Jiang et al., 2013, Zhou et al., 2008) it was 5.4 fold; in assay [7] (ref Sarrazin et al., 2007), 3 fold.
